# Results reported in ChEMBL document CHEMBL1201862, “PubChem BioAssay data set” (2004).
# The list shows a part of the results, in another mix than the full data. Only a part of the results of these assays is listed, not drawn at random. Active and inactive are the calls of the source. The rule behind the calls is not given here.
# Test: qHTS for Stage-Specific Inhibitors of Vaccinia Orthopoxvirus: mCherry Reporter Primary qHTS.
# Type: functional
row,Structure (SMILES),Potency
1,O=C(OC1CN2CCC1CC2)C12CC3CC(CC(C3)C1)C2 (stereo unspecified),inactive
